A mixed list of measured activities; the numbers were collected in NIAID ChemDB.

Shared fields: growth or infection tests; organism: Candida albicans; read-out: MIC

Lines come from different laboratories, so protocols vary. An empty or dashed field is not shown.

compound | strain or isolate | result
Fc1cc(C2=Nn3c(COc4ccc(Cl)cc4)nnc3S/C2=C\c2ccc(Cl)cc2)c(Cl)cc1Cl |  | 6 µg/mL
CCCCCCCCC(Cn1ccnc1)c1c(Cl)cccc1Cl |  | >100 µg/mL
Fc1cc(C2=Nn3c(COc4ccccc4)nnc3S/C2=C\c2ccc(Cl)cc2)c(Cl)cc1Cl |  | 12.5 µg/mL
CCC(C)n1ncn(-c2ccc(N3CCN(c4ccc(OC[C@H]5CO[C@](Cn6cncn6)(c6ccc(Cl)cc6Cl)O5)cc4)CC3)cc2)c1=O | Isolate CA-10 | >8 µg/mL
CCCCCCC(Cn1ccnc1)c1ccc(Cl)cc1 |  | 100 µg/mL
Cc1c(Sc2ccccc2)[n+](=O)c2cc(C(F)(F)F)ccc2n1[O-] | Clinical isolate 4 | 15.6 µg/mL
Fc1ccc(CCCCn2c3c(c4cc(F)ccc42)CNCC3)cc1 | OY8-47 | 1 µg/mL
C[C@@H](c1ncncc1F)[C@](O)(Cn1cncn1)c1ccc(F)cc1F | Isolate 98-210 | 0.03 µg/mL
Cc1c(Sc2ccccc2)[n+](=O)c2cc(Cl)ccc2n1[O-] | Clinical isolate 7 | 15.6 µg/mL
CSCC(N)C(=O)N[C@H]1[C@@H](O)[C@H](n2cnc3c(N)ncnc32)O[C@@H]1C(=O)O | FP633 | 0.2 µg/mL
CCC(C)CC(C)CCCCCCCCC(=O)N[C@H]1C[C@@H](O)[C@@H](OCCN)NC(=O)[C@@H]2[C@@H](O)CCN2C(=O)[C@H]([C@@H](O)CCN)NC(=O)[C@H]([C@H](O)[C@@H](O)c2ccc(O)cc2)NC(=O)[C@@H]2C[C@@H](O)CN2C(=O)[C@H]([C@H](C)O)NC1=O | ATCC64550 | 0.03 µg/mL
Fc1cc(C2=Nn3c(COc4ccccc4Cl)nnc3S/C2=C\c2ccc(Cl)cc2)c(Cl)cc1Cl |  | 12.5 µg/mL
CN[C@@H]1[C@H](O[C@@H]2O[C@H](CO)[C@@H](O)[C@H](S(=O)(=O)O)[C@H]2O)[C@@H](O)[C@H](O[C@H]2c3cc(C)c(C(=O)N[C@H](CO)C(=O)O)c(O)c3-c3c(cc4c(c3O)C(=O)c3cc(OC)cc(O)c3C4=O)[C@@H]2O)O[C@@H]1C | ATCC 32354 | 12.5 µg/mL
CCCCC(Cn1ccnc1)c1ccccc1Cl |  | 100 µg/mL
CC1C(=O)CC(c2ccccc2)N(OCCc2nc3ncccc3[nH]2)C1c1ccccc1 | 51 (NCIM-C27) | 50 µg/mL
Cc1c(S(=O)(=O)c2ccccc2)[n+](=O)c2ccccc2n1[O-] | Clinical isolate 22 | 7.8 µg/mL
CCCCCC(Cn1ccnc1)c1ccc(Cl)cc1Cl |  | 10 µg/mL
Cc1c(Cl)[n+](=O)c2cc(Cl)ccc2n1[O-] | Clinical isolate 7 | 7.8 µg/mL
Fc1cc(C2=Nn3c(COc4ccccc4Cl)nnc3S/C2=C\c2ccc3c(c2)OCO3)c(Cl)cc1Cl |  | 6 µg/mL
Nc1ncnc2c1ncn2[C@@H]1O[C@H](C(=O)O)[C@@H](NC(=O)C(N)CSCc2ccco2)[C@H]1O | FP633 | 0.8 µg/mL
CC[C@@H]([C@H](C)O)n1ncn(-c2ccc(N3CCN(c4ccc(OC[C@@H]5CO[C@@](Cn6cncn6)(c6ccc(F)cc6F)C5)cc4)CC3)cc2)c1=O | Isolate CA-8 | >4 µg/mL
CCCCCCCCC(Cn1ccnc1)c1ccc(Cl)cc1 |  | 10 µg/mL
O=C1CC(c2ccccc2)N(OCCc2nc3ncccc3[nH]2)C(c2ccccc2)C1 | 51 (NCIM-C27) | 100 µg/mL
Fc1cc(C2=Nn3c(CNc4ccccc4)nnc3S/C2=C\c2ccc(Cl)cc2Cl)c(Cl)cc1Cl |  | 12.5 µg/mL
COc1ccc(C2C(C)C(=O)C(C)C(c3ccc(OC)cc3)N2OCCc2nc3ncccc3[nH]2)cc1 | 6 (NCIM-C27) | 12.5 µg/mL
CC(C)CC(Cn1ccnc1)c1ccc(Cl)cc1Cl |  | 100 µg/mL
NCCCOc1ccc(C[C@H](N)C(=O)N[C@H]2[C@@H](O)[C@H](n3cnc4c(N)ncnc43)O[C@@H]2C(=O)O)cc1 | FP633 | >100 µg/mL
CC1C(=O)CC(c2ccc(Cl)cc2)N(OCCc2nc3ncccc3[nH]2)C1c1ccc(Cl)cc1 | 6 (NCIM-C27) | 50 µg/mL
Fc1cc(C2=Nn3c(COc4ccc(Cl)cc4Cl)nnc3S/C2=C\c2ccc(Cl)cc2Cl)c(Cl)cc1Cl |  | 6 µg/mL
CC(NC(=O)[C@H]1O[C@@H](n2cnc3c(N)ncnc32)[C@H](O)[C@@H]1NC(=O)C(N)CSCc1ccccc1)P(=O)(O)O | FP633 | 1.6 µg/mL
CCCCC(Cn1ccnc1)c1ccc(Br)cc1Br |  | 10 µg/mL
Cc1c(O)cccc1C(=O)N[C@@H](CSc1ccccc1)[C@H](O)CN1C[C@H]2CCCC[C@H]2C[C@H]1C(=O)NC(C)(C)C | I112A | >64 µg/mL
O=[n+]1c(Sc2ccccc2)c(CBr)n([O-])c2ccccc21 | Clinical isolate 20 | 15.6 µg/mL
CCCC(Cn1ccnc1)c1ccccc1Cl |  | >100 µg/mL
NC(=NC1CCCC1)c1ccc(-c2ccc(-c3ccc(C(N)=NC4CCCC4)cc3)o2)cc1 | Isolate 2281 | 12.5 µg/mL
Nc1ncnc2c1ncn2[C@@H]1O[C@H](C(=O)O)[C@@H](NC(=O)C(N)CSCc2ccccc2Cl)[C@H]1O | FP633 | 0.8 µg/mL